## Mutational tolerance of the Zika virus NS2B-NS3 protease

Reference: Ni et al. 2025, doi:10.1038/s41467-025-63602-z.

Protein: NS2B and the protease part of NS3 of Zika virus strain MR766. Positions count along the chain below; NS2B spans 2-131 and NS3 starts at 132.
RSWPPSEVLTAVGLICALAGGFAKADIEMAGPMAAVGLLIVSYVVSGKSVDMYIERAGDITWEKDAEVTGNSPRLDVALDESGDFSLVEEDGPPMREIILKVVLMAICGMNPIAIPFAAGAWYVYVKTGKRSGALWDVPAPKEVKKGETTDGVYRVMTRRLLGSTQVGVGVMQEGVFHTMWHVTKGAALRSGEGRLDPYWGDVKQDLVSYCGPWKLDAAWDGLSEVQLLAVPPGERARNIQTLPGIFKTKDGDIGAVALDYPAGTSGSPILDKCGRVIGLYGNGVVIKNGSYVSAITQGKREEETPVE

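Mutant virus pools were grown in human Huh-7.5 cells. Deep sequencing gave the change in frequency of each mutant relative to wild type, averaged over three replicate libraries (two for positions 207-308). The aim was to find sites where inhibitor-binding pockets cannot change.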

The number is log2 of the effect relative to wild type; negative values mean reduced growth, higher values better tolerance.
Substitutions are written as wild-type residue, site number, new residue.
Six mutants with high scores were retested singly and none clearly outgrew wild type, so positive values are not proof of better growth.

F85I gave -3.91.
S42E gave -5.51.
P139G gave -6.13.
T184H gave -5.74.
L162F gave -2.57.
E302W gave -0.59.
P213S gave -2.14.
A17H gave -5.88.
T69A gave -4.18.
K204M gave -5.76.
K127E gave -2.86.
P94Y gave -3.59.
V12K gave -5.85.
S72G gave -7.73.
D253Q gave -2.50.
W62E gave -6.51.
R74V gave -0.96.
K248M gave -0.05.
V102H gave -6.16.
T165E gave -4.93.
Q173P gave -7.33.
G129Y gave -5.72.
Q166W gave -5.81.
F177Q gave -4.53.
P93* gave -6.22.
P141W gave -5.20.
A106H gave -5.60.
S224D gave -5.40.
R160H gave -1.67.
Y154A gave -5.83.
V226C gave -5.41.
K185P gave -6.49.
K288T gave -3.31.
T297F gave -4.88.
D80Q gave -5.92.
F117K gave -5.99.
G47Y gave -6.08.
E81F gave -6.00.
G234L gave -6.22.
I107F gave -2.18.
E148M gave -2.01.
T128N gave -0.63.
Y199M gave -2.35.
L228I gave -4.17.
A57L gave -4.50.
L14F gave -2.51.

2 of these entries, quoted again:

K248M: -0.05.
Q166W: -5.81.

Stop codons (*) centre on -7 and mark the level of dead virus.
The authors count -1 or higher as tolerated. Position 1 is the last residue of NS2A.
The region was split into three libraries (1-103, 104-206, 207-308).